## In-gel DMS probing of monomeric and dimeric HIV-1 RNA

Source: Ye et al. 2022 (doi:10.1038/s41594-022-00746-2), supplementary data.

The 5' region of HIV-1 NL4-3 RNA (positions 1-437):
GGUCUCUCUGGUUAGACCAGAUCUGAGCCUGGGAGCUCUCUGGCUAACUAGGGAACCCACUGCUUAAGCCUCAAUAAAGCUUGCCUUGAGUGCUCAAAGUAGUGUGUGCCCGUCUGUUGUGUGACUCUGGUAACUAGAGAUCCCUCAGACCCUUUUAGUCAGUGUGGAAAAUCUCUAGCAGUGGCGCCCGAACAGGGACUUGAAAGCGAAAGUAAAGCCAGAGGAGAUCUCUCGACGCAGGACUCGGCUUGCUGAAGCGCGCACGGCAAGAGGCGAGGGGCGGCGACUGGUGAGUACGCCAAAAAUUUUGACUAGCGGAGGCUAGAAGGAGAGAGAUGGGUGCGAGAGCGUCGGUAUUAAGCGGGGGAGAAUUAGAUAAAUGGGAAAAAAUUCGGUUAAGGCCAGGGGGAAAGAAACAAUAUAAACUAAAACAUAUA

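Randomly mutated transcripts starting with one, two or three G (1G, 2G, 3G), capped or uncapped, were folded for 30 min at 37 °C. Monomer and dimer bands were cut from native gels after folding in high salt (300 mM KCl, 5 mM MgCl2) or low salt (40 mM KCl, 0.1 mM MgCl2). Each band was probed in the gel with DMS (170 mM, 15 min, 37 °C), with ethanol as control, and sequenced.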

Values are winsor-normalised DMS reactivities of A and C; higher means more reactive, usually unpaired.
One numbering serves 1G, 2G and 3G.
A position is written with its base.

position | 1G uncapped high-salt dimer | 3G uncapped low-salt dimer | 1G uncapped high-salt monomer | 3G capped low-salt monomer
A332 | 0.50 | 0.57 | 0.63 | 0.63
A430 | 0.57 | 0.53 | 0.54 | 0.50
C199 | 0.53 | 0.50 | 0.49 | 0.43
A404 | 0.24 | 0.31 | 0.23 | 0.24
A215 | 0.69 | 0.59 | 0.54 | 0.49
A96 | 0.25 | 0.31 | 0.27 | 0.29
A314 | 0.04 | 0.05 | 0.04 | 0.02
A302 | 1.25 | 1.42 | 1.23 | 1.22
C58 | 0.08 | 0.05 | 0.19 | 0.02
C417 | 0.85 | 0.54 | 0.79 | 0.85
C402 | 0.05 | 0.08 | 0.06 | 0.03
A26 | 0.24 | 0.08 | 0.14 | 0.06
C44 | 0.04 | 0.05 | 0.04 | 0.02
A136 | 0.09 | 0.11 | 0.09 | 0.08
A410 | 0.37 | 0.42 | 0.38 | 0.42
C69 | 0.04 | 0.11 | 0.04 | 0.05
A268 | 0.18 | 0.16 | 0.29 | 0.20
C151 | 0.76 | 0.89 | 0.91 | 0.80
C218 | 0.05 | 0.05 | 0.04 | 0.02
A418 | 0.63 | 0.50 | 0.58 | 0.63
A419 | 0.48 | 0.42 | 0.46 | 0.48
A133 | 1.53 | 1.33 | 1.62 | 1.30
A214 | 0.31 | 0.29 | 0.27 | 0.25
C93 | 0.04 | 0.06 | 0.04 | 0.02
C173 | 0.04 | 0.05 | 0.04 | 0.02
A54 | 0.21 | 0.16 | 0.20 | 0.11
A66 | 1.07 | 0.82 | 0.96 | 0.76
A89 | 0.40 | 0.66 | 0.57 | 0.71
A194 | 0.85 | 1.14 | 1.01 | 1.13
C393 | 0.62 | 0.53 | 0.64 | 0.63
A345 | 1.35 | 0.98 | 1.26 | 1.22
A47 | 0.22 | 0.15 | 0.18 | 0.11
A378 | 0.22 | 0.24 | 0.23 | 0.22
C80 | 0.40 | 0.25 | 0.38 | 0.30
C185 | 0.47 | 0.53 | 0.44 | 0.50
A311 | 1.35 | 1.31 | 1.24 | 1.10
A205 | 0.36 | 0.24 | 0.31 | 0.27
A73 | 0.04 | 0.05 | 0.04 | 0.04
A222 | 0.28 | 0.20 | 0.26 | 0.21
A21 | 0.55 | 0.55 | 0.59 | 0.53
A59 | 0.31 | 0.74 | 0.46 | 0.78
A78 | 0.62 | 0.75 | 0.75 | 0.85
A385 | 0.53 | 0.58 | 0.53 | 0.55
A398 | 0.28 | 0.18 | 0.24 | 0.14
A124 | 0.91 | 1.22 | 1.10 | 1.43
A67 | 0.53 | 0.69 | 0.69 | 0.99
A428 | 0.10 | 0.14 | 0.11 | 0.11
C175 | 0.04 | 0.05 | 0.04 | 0.02
C403 | 0.04 | 0.05 | 0.04 | 0.03
A46 | 0.08 | 0.05 | 0.05 | 0.02
A192 | 0.72 | 0.87 | 0.80 | 0.86
A431 | 0.64 | 0.63 | 0.59 | 0.56
C143 | 0.04 | 0.05 | 0.04 | 0.02
A421 | 0.37 | 0.40 | 0.37 | 0.38
C109 | 0.22 | 0.08 | 0.20 | 0.06
C57 | 0.64 | 0.05 | 0.78 | 0.02
C287 | 0.39 | 0.47 | 0.29 | 0.30
A77 | 0.74 | 0.74 | 0.82 | 0.79
A360 | 0.62 | 0.43 | 0.39 | 0.44
C110 | 0.17 | 0.08 | 0.20 | 0.13
A387 | 0.24 | 0.30 | 0.24 | 0.22

The first 8 entries again:

position	1G uncapped high-salt dimer	3G uncapped low-salt dimer	1G uncapped high-salt monomer	3G capped low-salt monomer
A332	0.50	0.57	0.63	0.63
A430	0.57	0.53	0.54	0.50
C199	0.53	0.50	0.49	0.43
A404	0.24	0.31	0.23	0.24
A215	0.69	0.59	0.54	0.49
A96	0.25	0.31	0.27	0.29
A314	0.04	0.05	0.04	0.02
A302	1.25	1.42	1.23	1.22